This note sets out measurements from article PMC13303869.

In one data set the test system is AbaAlkX WT. Description: EMSA. The following applies: interstrand crosslink by 8-atom nitrogen mustard analog (NM8) between guanines (G14 of strand 1 and G11 of strand 2, 5'-GAC/GTC site); both are 2'-fluoro-deoxyguanosine; EMSA: 4 µL protein + 4 µL 20 nM DNA, 25 mM Tris pH 7.5, 100 mM NaCl, 5% glycerol, 0.1 mM EDTA, 1 mM TCEP, room temperature, 20 min; 5% native TBE gel; recombinant protein; protein details: His6 tag removed with 3C protease (pBG102); label: 5'-Cy5 on strand 1, 5'-FAM on strand 2.

Another data set deals with AbaAlkX Y300F. Nature of the data set: EMSA. The following applies: recombinant protein; protein details: His6 tag removed with 3C protease (pBG102); label: 5'-Cy5 on strand 1, 5'-FAM on strand 2. A general note: Mobility shift assays separate free from complexed probe on a gel.

The exact form of at least one protein or probe is not confirmed. For some assays here: At least one verdict rests on a figure or table, not on a statement of the authors.

In the case of “TTTATTTTTATTTGACTTTTATTTTT (double strand) [2F-NM8-ICL DNA]”, the binding result in the data set on AbaAlkX WT and in the data set with AbaAlkX Y300F was “binds” in each case.
